Results published in PubChem BioAssay AID588689 (Southern Research Specialized Biocontainment Screening …, 2011).
The other results are listed elsewhere or left out. Measured potencies and affinities stand elsewhere. The source made the active and inactive calls. Rule as the data show it: inconclusive = inhibition above about 29% without an active follow-up result; inactive = below that.

The chains behind the UniProt entries cited, without tags or fusion partners.
UniProt P29991, whole entry, looked up: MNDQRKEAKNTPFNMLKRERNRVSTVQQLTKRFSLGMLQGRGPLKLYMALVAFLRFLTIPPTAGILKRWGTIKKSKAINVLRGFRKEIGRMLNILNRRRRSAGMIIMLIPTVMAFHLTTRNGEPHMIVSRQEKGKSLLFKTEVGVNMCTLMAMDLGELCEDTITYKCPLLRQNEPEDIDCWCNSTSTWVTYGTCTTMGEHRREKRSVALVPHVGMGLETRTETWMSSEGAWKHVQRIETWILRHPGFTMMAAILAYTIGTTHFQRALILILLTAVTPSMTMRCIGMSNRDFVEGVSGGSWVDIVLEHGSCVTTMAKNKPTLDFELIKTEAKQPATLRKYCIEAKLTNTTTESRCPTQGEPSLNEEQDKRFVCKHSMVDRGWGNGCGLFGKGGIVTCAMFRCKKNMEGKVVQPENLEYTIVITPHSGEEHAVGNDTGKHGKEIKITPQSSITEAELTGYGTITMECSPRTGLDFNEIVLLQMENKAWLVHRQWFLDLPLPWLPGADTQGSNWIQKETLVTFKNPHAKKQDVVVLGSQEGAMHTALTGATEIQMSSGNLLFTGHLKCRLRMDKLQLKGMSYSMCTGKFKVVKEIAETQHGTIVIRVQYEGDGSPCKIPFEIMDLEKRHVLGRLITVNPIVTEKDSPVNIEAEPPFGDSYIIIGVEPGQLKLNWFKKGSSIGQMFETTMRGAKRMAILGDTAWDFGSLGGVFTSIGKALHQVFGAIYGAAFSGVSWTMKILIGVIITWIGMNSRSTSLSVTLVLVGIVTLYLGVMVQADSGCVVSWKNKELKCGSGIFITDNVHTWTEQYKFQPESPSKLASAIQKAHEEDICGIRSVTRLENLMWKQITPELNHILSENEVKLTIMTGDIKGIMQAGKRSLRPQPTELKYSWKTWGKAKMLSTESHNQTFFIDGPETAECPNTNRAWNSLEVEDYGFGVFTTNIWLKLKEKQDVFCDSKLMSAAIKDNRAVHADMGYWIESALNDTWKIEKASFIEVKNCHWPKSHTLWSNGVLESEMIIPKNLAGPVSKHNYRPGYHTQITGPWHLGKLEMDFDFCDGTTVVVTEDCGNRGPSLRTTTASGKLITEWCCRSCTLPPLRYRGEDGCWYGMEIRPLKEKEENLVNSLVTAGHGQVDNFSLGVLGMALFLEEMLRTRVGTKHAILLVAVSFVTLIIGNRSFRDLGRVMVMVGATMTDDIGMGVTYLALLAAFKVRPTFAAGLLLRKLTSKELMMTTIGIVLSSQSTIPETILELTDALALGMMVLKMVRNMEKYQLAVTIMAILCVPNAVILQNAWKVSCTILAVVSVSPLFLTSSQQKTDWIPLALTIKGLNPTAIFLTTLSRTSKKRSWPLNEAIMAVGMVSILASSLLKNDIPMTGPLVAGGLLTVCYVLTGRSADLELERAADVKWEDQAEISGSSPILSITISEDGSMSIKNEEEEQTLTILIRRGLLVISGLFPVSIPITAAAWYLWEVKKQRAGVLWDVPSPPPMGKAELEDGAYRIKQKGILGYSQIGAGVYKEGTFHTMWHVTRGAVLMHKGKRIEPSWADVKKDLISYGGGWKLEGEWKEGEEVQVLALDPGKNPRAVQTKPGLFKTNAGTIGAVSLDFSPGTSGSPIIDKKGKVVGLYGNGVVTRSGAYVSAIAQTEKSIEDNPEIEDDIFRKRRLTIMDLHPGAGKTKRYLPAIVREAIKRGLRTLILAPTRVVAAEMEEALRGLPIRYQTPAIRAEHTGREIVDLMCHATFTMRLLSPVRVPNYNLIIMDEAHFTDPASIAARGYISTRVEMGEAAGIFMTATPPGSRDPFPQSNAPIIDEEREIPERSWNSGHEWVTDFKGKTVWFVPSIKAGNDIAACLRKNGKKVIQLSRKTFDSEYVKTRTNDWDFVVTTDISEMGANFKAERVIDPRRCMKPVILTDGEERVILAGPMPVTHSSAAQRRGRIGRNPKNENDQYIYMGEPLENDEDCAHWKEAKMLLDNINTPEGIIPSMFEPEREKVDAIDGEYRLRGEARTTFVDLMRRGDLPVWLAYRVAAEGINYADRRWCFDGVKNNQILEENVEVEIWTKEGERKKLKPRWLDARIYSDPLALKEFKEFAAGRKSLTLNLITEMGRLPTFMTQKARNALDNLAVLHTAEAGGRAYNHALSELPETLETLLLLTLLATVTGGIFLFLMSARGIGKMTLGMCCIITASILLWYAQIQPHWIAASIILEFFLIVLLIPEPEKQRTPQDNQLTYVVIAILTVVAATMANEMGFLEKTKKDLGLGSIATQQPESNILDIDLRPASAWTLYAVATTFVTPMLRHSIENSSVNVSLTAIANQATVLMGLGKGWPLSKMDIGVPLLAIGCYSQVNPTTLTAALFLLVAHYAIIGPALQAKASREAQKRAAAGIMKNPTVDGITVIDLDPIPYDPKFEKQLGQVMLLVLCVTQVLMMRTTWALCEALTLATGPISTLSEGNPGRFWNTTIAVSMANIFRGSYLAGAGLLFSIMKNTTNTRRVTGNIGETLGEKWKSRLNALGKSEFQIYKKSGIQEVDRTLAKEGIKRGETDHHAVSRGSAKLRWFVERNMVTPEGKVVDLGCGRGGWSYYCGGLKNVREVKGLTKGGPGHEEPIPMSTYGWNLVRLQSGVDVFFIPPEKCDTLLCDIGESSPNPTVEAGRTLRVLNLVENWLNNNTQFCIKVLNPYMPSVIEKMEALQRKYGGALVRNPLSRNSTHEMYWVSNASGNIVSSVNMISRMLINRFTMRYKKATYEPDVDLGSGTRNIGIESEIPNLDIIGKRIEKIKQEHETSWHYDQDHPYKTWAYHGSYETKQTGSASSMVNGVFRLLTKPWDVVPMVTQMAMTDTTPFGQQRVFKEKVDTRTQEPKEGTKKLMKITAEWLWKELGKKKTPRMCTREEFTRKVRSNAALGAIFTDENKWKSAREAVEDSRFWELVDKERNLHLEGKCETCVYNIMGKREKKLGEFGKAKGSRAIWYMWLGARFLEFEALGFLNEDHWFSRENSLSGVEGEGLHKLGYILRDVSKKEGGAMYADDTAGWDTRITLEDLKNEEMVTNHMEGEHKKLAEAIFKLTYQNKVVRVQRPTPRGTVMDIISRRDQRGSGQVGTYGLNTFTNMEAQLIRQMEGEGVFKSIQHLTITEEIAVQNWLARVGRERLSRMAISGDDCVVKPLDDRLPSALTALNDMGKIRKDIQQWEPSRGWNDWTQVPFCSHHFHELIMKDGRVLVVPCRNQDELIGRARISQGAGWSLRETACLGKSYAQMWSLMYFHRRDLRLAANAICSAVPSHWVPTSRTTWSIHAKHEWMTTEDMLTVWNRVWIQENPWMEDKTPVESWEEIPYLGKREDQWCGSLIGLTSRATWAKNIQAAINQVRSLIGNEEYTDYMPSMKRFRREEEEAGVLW

target: Genome polyprotein (Dengue virus type 2 (strain 16681-PDK53)) (UniProt P29991); assay: Dengue-2 NS5 methyltransferase inhibitors, primary screen, biochemical, confirmation dose response (AID 588689); conditions: Dengue-2 NS5 methyltransferase capping enzyme assay, at 25 µM, hits give high values

| Structure (SMILES) | inhibition |
| --- | --- |
| CN(C)C1(CNC(=O)c2ccc(S(C)(=O)=O)cc2)CCCCC1 | inactive: -5.18% |
| O=C(/C=C/c1ccccc1)OC1CN2CCC1CC2 (stereo not given) | inactive: -10.1% |
| CCCC1OP(=O)(Nc2ccccc2)OCC1CC (stereo not given) | inactive: 9.68% |
| Cc1nn(-c2ccccc2)c2c1P(=O)(N1CCOCC1)N(C)C(c1ccccc1)=N2 (stereo not given) | inactive: -2.76% |
| Cc1ccc(C(=O)OC2CN3CCC2CC3)cc1 (stereo not given) | inactive: -9.14% |
| CC1CCC(C(C)C)C(OP(=O)(Nc2ccccn2)c2ccccc2)C1 (stereo not given) | inactive: -4.65% |
| Nc1cccc([As](=O)(O)c2ccccc2)c1 | inactive: -8.63% |
| O=[As](O)(c1cccs1)c1cccs1 | inactive: -7.18% |
| Cc1ccc(OCC(=O)OC2CN3CCC2CC3)cc1 (stereo not given) | inactive: -3.2% |
| NS(=O)(=O)c1cccc(NC(=O)COC(=O)C(O)(c2ccccc2)c2ccccc2)c1 | inactive: -2.22% |
| O=P1(Nc2ccc(Br)cn2)COc2ccccc2OC1 | inactive: 2.05% |
| O=P1(Nc2ncccn2)COc2ccccc2OC1 | inactive: -9.41% |
| Clc1n[nH]nc1-c1nn[nH][15n]1 | inactive: 0% |
| O=P1(N(CCCl)CCCl)NCCC(C(F)(F)F)O1 (stereo not given) | inactive: 0% |
| CC(C)(C)C(=O)NC(Sc1ncccn1)C(Cl)(Cl)Cl (stereo not given) | inactive: -7.84% |
| CCC1=CC2Cc3nc4ccc(Cl)cc4c(N)c3C(C1)C2 (stereo not given) | inactive: 4.01% |
| O=P1(Nc2ccccn2)COc2ccccc2OC1 | inactive: -6.45% |
| CCOP(=O)(NC(=NC(C)c1ccccc1)NC(C)c1ccccc1)OCC (stereo not given) | inactive: -1.62% |
| CCOP(=O)(Nc1ccc(C)cn1)OCC | inactive: 3.3% |
| CN(C(=O)Cc1ccc(Cl)c(Cl)c1)[C@@H]1CCCC[C@H]1N1CCCC1 | inactive: -4.48% |
| CC(C)/C=N\N=C(\N)N[N+](=O)[O-] | inactive: -8.58% |
| CC1(CBr)Cn2c(nc3ccccc3c2=O)S1 (stereo not given) | inactive: -2.14% |

| Structure (SMILES) | inhibition |
| --- | --- |
| COc1ccccc1CNC(=O)COC(=O)C(O)(c1ccccc1)c1ccccc1 | inactive: 10.1% |
| Cc1cccc(OCC(=O)OC2CN3CCC2CC3)c1 (stereo not given) | inactive: -8.19% |
| O=[As](O)(c1cccc(O)c1)c1cccc(O)c1 | inactive: -7.91% |
| O=C(OC1CN2CCC1CC2)c1ccc(Cl)cc1 (stereo not given) | inactive: 3.83% |
| O=[As](O)(O)c1cccnc1 | inactive: -5.49% |
| COc1cc(C(=O)NCC2(N3CCOCC3)CCCCC2)cc(Cl)c1OC(C)C | inactive: 4.37% |
| CS(=O)(=O)c1ccc(Cl)c(NC(=O)COC(=O)C(O)(c2ccccc2)c2ccccc2)c1 | inactive: 3.28% |
| COc1cc(C2NCCC3(OCCO3)C2(C)C)cc(OC)c1OC (stereo not given) | inactive: 5.74% |
| CCOP(=O)(Nc1cccc2ccccc12)OCC | inactive: -7.96% |
| Cc1ccc(NCCc2c([N+](=O)[O-])cc([N+](=O)[O-])cc2[N+](=O)[O-])cc1 | inactive: 7.95% |
| CCCOP(=S)(Nc1nc(N)cc(=O)[nH]1)OCCC | inactive: -6.46% |
| O=C(O)COc1ccc([As](=O)(O)O)cc1[N+](=O)[O-] | inactive: -5.88% |
| Nc1ccccc1[As](=O)(O)c1ccccc1 | inactive: -15.8% |
| CCOP1(=S)c2c(C)nn(CCC#N)c2N=C(c2ccccc2F)N1C (stereo not given) | inactive: 0% |
| O=P(Nc1nccs1)(Oc1ccccc1)Oc1ccccc1 | inactive: 2.73% |
| O=P(Nc1nccs1)(c1ccccc1)c1nc2ccccc2s1 (stereo not given) | inactive: -9.66% |
| N#CCCN(C(=O)COC(=O)C(O)(c1ccccc1)c1ccccc1)c1ccc(F)cc1 | inactive: -1.45% |
| CN(C(=O)Cc1ccccc1)[C@@H]1CC[C@]2(CCCO2)C[C@H]1N1CCCC1 | inactive: 15.7% |
| CCOP1(=S)c2c(C)nn(CCC#N)c2N=C(c2ccc(F)cc2)N1C (stereo not given) | inactive: 0.69% |
| O=[N+]([O-])c1ccc2c(c1)nnn2O | inactive: -0.8% |
| CN(C)C(=O)c1cc([N+](=O)[O-])cc2c1-c1c(cc([N+](=O)[O-])cc1[N+](=O)[O-])C2=O | inactive: -0.78% |
| CN(C(=O)Cc1ccc(Cl)c(Cl)c1)[C@H]1CC[C@@]2(CCCO2)C[C@@H]1N1CCCC1 | inactive: -2.2% |

| Structure (SMILES) | inhibition |
| --- | --- |
| NC(=O)Nc1ccc([As](=O)(O)O)cc1 | inactive: -10.2% |
| Cc1ccc(OP(=O)(Nc2ccc([N+](=O)[O-])cn2)Oc2ccc(C)cc2)cc1 | inactive: 0.68% |
| Cc1ccc2nc3c(c(C)c2c1)CC(C(Cl)Cl)S3 (stereo not given) | inactive: -10.8% |
| O=[As](O)(c1ccc(O)cc1)c1ccccc1O | inactive: -14.1% |
| C[As](=O)(O)c1cccc(C(=O)O)c1 | inactive: -6.46% |
| COc1cc(C(=O)NCC2(N3CCOCC3)CCCCC2)ccc1OCC(C)C | inactive: 1.86% |
| O=C(OC1CN2CCC1CC2)c1cccc2[nH]cnc12 (stereo not given) | inactive: -2.7% |
| CCN(CC)C(=S)SC(NC=O)C(Cl)(Cl)Cl (stereo not given) | inactive: -9% |
| O=[N+]([O-])c1cc([N+](=O)[O-])c(-c2ccn[nH]2)s1 | inactive: 10.7% |
| ClCCSc1nnc(-c2cccnc2)o1 | inactive: -8.09% |
| COC(=O)C1(C)COP(=O)(N2CCCCCC2)OC1 (stereo not given) | inactive: 10.5% |
| CC(C)c1ccc(OP(=O)(Nc2ccccn2)Oc2ccccc2F)cc1 (stereo not given) | inactive: -9.24% |
| O=P1(N(CCCl)CCCl)OCCCN1CCCl (stereo not given) | inactive: 9.65% |
| O=P1(N(CCCl)CCCl)Nc2ccccc2N1 | inactive: 17.9% |
| COc1ccc2nc(NP(=O)(c3ccccc3)c3ccccc3)sc2c1 | inactive: 1.56% |
| COc1cc(I)ccc1[As](=O)(O)O | inactive: 0% |
| Cc1c2c(nc3ccccc13)SC(C(Cl)Cl)C2 (stereo not given) | inactive: -3.64% |
| O=C(OC1CN2CCC1CC2)C12CC3CC(CC(C3)C1)C2 (stereo not given) | inactive: -5.57% |
| Cc1cc(=O)[nH]c(N[N+](=O)[O-])n1 | inactive: -6.34% |
| O=[N+]([O-])c1cc(Oc2ccc([N+](=O)[O-])cc2C(F)(F)F)cc([N+](=O)[O-])c1 | inactive: 7.26% |
| COc1ccc(N/C(=N/P(=O)(N2CCOCC2)N2CCOCC2)N2CCOCC2)cc1 | inactive: -7.46% |
